Results deposited as PubChem BioAssay AID504761 (Drosophila RNAi Screening Center, 2011).
Test: 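Insect host genes that dengue virus relies on to spread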 (primary screen). Cell system: D.Mel-2 cells from Drosophila. Knock-down reagent: long dsRNA against Drosophila genes. Treatment: infection with dengue virus type 2; dose and infection time not stated. Read-out: 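Cells stained for dengue envelope protein and imaged; percent of infected cells per well on duplicate plates, ranked by infection, with stained nuclei counted for cell number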. Direction: infection score: higher = more virus-infected cells. Call rule: 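Very low infection ranking in both replicate wells (chance probability at most 0.065), then a retest showing infection dropped 1.5-fold or more at p below 0.05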. Meaning of the calls: active = confirmed: knock-down lowers infection; inactive = not picked or not confirmed.
In all, the deposit lists about 22,000 reagents; shown is an unselected part of those with a known target gene and a result. In the full data, 116 (0.52%) got an active call. 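Calls depend on retest data that are not deposited; infection was ranked per plate without normalising between plates; the unit of the infection score is not given.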 A plus sign joins genes that one reagent is predicted to hit. Not all columns of the deposit are shown. The record does not give: the amount of reagent, the time to read-out.

infection score, replicate 1, by predicted target and reagent
Cap-G (Chromosome associated protein G): SID104186444 6.26 inactive; SID104186445 6.93 inactive; SID104201461 5.48 inactive
CG8281: SID104190768 3.81 inactive
Polr2A (RNA polymerase II subunit A): SID104200072 30.8 inactive; SID104205701 46.9 inactive
CG13743: SID104202136 1.6 inactive; SID104204120 13.3 inactive
side-IV + CG17025 (retired record): SID104194960 3.15 inactive
Mad1 (Mitotic arrest-deficient 1): SID104187353 6.07 inactive
Hem (HEM-protein): SID104191657 14.5 inactive
me31B (maternal expression at 31B): SID104183361 5.66 inactive
CG17600: SID104200432 0.42 active; SID104202123 1.76 inactive; SID104205747 14.8 inactive
Cyt-c1 (Cytochrome c1): SID104190239 8.96 inactive; SID104207765 9.04 inactive
TfIIFbeta (Transcription factor TFIIFbeta): SID104196676 1.63 inactive; SID104201189 5.49 inactive; SID104208286 30.4 inactive
PK1-R (Pyrokinin 1 receptor): SID104196369 3.3 inactive
Nrt (Neurotactin): SID104191029 2.82 inactive
CG9316: SID104182987 6.29 inactive
Alp9 (Alkaline phosphatase 9): SID104190278 5.8 inactive
eIF3g1 (eukaryotic translation initiation factor 3 subunit g1): SID104198219 4.64 inactive; SID104207826 20.4 inactive
CG33769: SID104191508 6.14 inactive
Rcd-1 (Required for cell differentiation 1): SID104199361 2.62 inactive
ome (omega): SID104189114 4.45 inactive; SID104190074 0.63 inactive; SID104191172 1.85 inactive
ATPsyndelta (ATP synthase, delta subunit): SID104198040 21.1 inactive
CG42564: SID104192310 1.19 inactive
Muc68Ca (Mucin 68Ca): SID104190104 6.53 inactive; SID104190105 3.01 inactive
Idi (Isopentenyl-diphosphate delta isomerase): SID104195710 3.68 inactive
CG32188 + CG32189: SID104207354 20.8 inactive
tth (toothrin): SID104199227 6.19 inactive; SID104203666 2.58 inactive

6 neighbouring reagents already listed, quoted:
infection score, replicate 1, by predicted target and reagent
CG8281: SID104190768 3.81 inactive
Polr2A (RNA polymerase II subunit A): SID104200072 30.8 inactive; SID104205701 46.9 inactive
CG13743: SID104202136 1.6 inactive; SID104204120 13.3 inactive
side-IV + CG17025 (retired record): SID104194960 3.15 inactive
